A mixed list of measured activities; the numbers were collected in NIAID ChemDB.

All rows: tests in culture; organism: HIV-1

Two numbers with a dash give a range or band.

compound,strain or isolate,read by,mutations,cell line,read-out,result
CN1c2ccccc2C2C1C=C(C#N)C(=O)N2c1ccc([N+](=O)[O-])cc1,F-93BR20,GFP / fluorescence,,HeLa,EC50,0.03 µM
CNC(=O)c1nc2n(c(=O)c1O)CCOC21CCN(S(=O)(=O)c2cc(F)ccc2C)CC1,NL4-3,luciferase / reporter gene,,MT-2,EC50,≥0.1 µM
C=C(C)[C@@H]1CC[C@]2(CO)CC[C@]3(C)[C@H](CC[C@@H]4[C@@]5(C)CC=C(c6ccc(C(=O)O)cc6)C(C)(C)[C@@H]5CC[C@]43C)[C@@H]12,NL4-3,luciferase,Gag P373S,MT-2,EC50,1 µM
CN1C(=O)C(c2cc(Cl)c(O)c(Cl)c2)NC(=O)[C@@H]2NC(=O)C(c3cc(Cl)c(O)c(Cl)c3)NC(=O)[C@H](NC(=O)C(=O)c3cc(Cl)c(O)c(Cl)c3)Cc3c[nH]c4c(cccc34)-c3cc2cc(c3O)Oc2ccc(cc2)CC1C(=O)NC(C(=O)O)c1ccc(O)cc1,,syncytia,,MOLT-4,EC50,1.1 µM
C[C@@H]1CCO[C@H]2Cn3cc(C(=O)NCc4ccc(F)cc4F)c(=O)c(O)c3C(=O)N12,NL4-3,RT activity,G140S/Q148H,CBMC,EC50,0.0081 µM
C=C1c2cc(CCOc3ccc(NS(C)(=O)=O)c4ccccc34)cnc2N(CC)c2ncccc2N1C,,p24,RT-K103N Y181C,C8166,EC50,<0.1 µM
O=C(c1ccccc1SSc1ccccc1C(=O)N1CCSCC1)N1CCSCC1,,cytopathic effect / XTT,,CEM,EC50,>42 µM
COc1ccc(-c2c(C)nc3c(N4CC[C@@H](NS(=O)(=O)c5ccc(Cl)cc5)C4)cc(C)nn23)cc1OC,,p24,,H9,EC50,0.4 µM
O=C(O)C(=O)/C=C(\O)c1cc(Cc2ccc(F)cc2F)cn(Cc2ccccc2)c1=O,,,,MAGI,EC50,0.8 µM
C=Cc1c(C)c2cc3[nH]c(cc4nc(cc5nc(cc1[nH]2)C(C)=C5CCC(=O)OC)C(CCC(=O)OC)=C4C)c(C)c3C=C,LAV,cytopathic effect,,MT-4,EC50,<10 µg/mL
Cc1cc(C)c(-n2nnnc2SCC(=O)Nc2ccc(Br)cc2F)c(C)c1,,p24,,MT-4,EC50,<10 µM
C[C@@H]1CN(C(=O)c2ccccc2)CCN1C(=O)C(=O)c1c[nH]c2c(NC(=O)CO)cccc12,,luciferase / reporter gene,,HeLa,EC50,<1 µM
O=C(Nc1nccs1)c1ccccc1SSc1ccccc1C(=O)Nc1nccs1,,cytopathic effect / XTT,,CEM,EC50,12 µM
C=C(C)[C@@H]1CC[C@]2(CO)CC[C@]3(C)[C@H](CC[C@@H]4[C@@]5(C)CC=C(c6ccc(S(N)(=O)=O)cc6)C(C)(C)[C@@H]5CC[C@]43C)[C@@H]12,NL4-3,luciferase,Gag P373S,MT-2,EC50,1 µM
Cc1ccc(S(=O)(=O)N2CCC3(CC2)OCCn2c3nc(C(=O)NC(C)c3ccc(F)cc3)c(O)c2=O)cc1,NL4-3,luciferase / reporter gene,,MT-2,EC50,0.01–0.1 µM
COc1ccc(-c2c(C)sc3c(N4CC[C@@H](NC(C)=O)C4)nc(Cl)nc23)cc1OC,,p24,,H9,EC50,>100 µM
Cc1cc(C)c(-n2nnnc2SCC(=O)Nc2cccc(Cl)c2C#N)c(C)c1,,p24,,MT-4,EC95,<10 µM
Cc1occc1C(=O)Nc1ccc(Cl)c(/C=N/N(C)C)c1,L-697 661-resistant RT Y181C,syncytia,RT-Y181C,CEM,EC50,<2 µg/mL
CCc1c(Cc2cc(C)cc(C)c2)n(COCC#Cc2cccc(O[Si](c3ccccc3)(c3ccccc3)C(C)(C)C)c2)c(=O)[nH]c1=O,IIIB,MTT,Y181C,MT-4,EC50,7.6 µM
CC(=O)N[C@@H]1CCN(c2cc(C)nn3c(-c4ccc(CO)cc4)c(C)nc23)C1,,p24,,H9,EC50,0.4 µM
CC(C)C[C@@H](CO)NC(=O)c1ccccc1SSc1ccccc1C(=O)N[C@H](CO)CC(C)C,,cytopathic effect / XTT,,CEM,EC50,>12 µM
O=C(O)C(=O)/C=C(\O)c1cc(Cc2ccc(F)cc2)cn(Cc2ccc(F)cc2)c1=O,,,,MAGI,EC50,0.8 µM
Cc1ncn(Nc2ccccc2)c1C,NL4-3,cytopathic effect / MTT,,MT-4,EC50,>351 µM
C[C@@H]1CN(C(=O)c2ccccc2)CCN1C(=O)C(=O)c1c[nH]c2c(NC(=O)NCCCCNC(=O)Nc3cccc(B(O)O)c3)cccc12,,luciferase / reporter gene,,HeLa,EC50,<1 µM
COc1ccccc1N1CCN(c2c(F)cc3c(=O)c(C(=O)O)cn(C)c3c2CN(C)C)CC1,,cytopathic effect / MTT,,MT-4,EC50,0.93 µM
C=C(C)[C@@H]1CC[C@]2(C(=O)NCCCCCCCC(=O)N[C@@H](CC(C)C)[C@@H](O)CC(=O)O)CC[C@]3(C)[C@H](CC[C@@H]4[C@@]5(C)CC[C@H](O)C(C)(C)[C@@H]5CC[C@]43C)[C@@H]12,IIIB,p24 / RT activity,,PBMC,EC50,<0.1 µM
CCN1c2ncc(CCOc3ccc(C(=O)O)c4c3CCN(C(=O)OC)C4)cc2C(=O)N(C)c2cccnc21,WT,p24,,C8166,EC50,<0.1 µM
CCOC(=O)[C@H](C)NP(=O)(OC[C@@H]1C=CC(n2ccc(=O)[nH]c2=O)O1)Oc1cccc2ccccc12,,syncytia,,CEM,EC50,>50 µM
CCc1c(Cc2cc(C)cc(C)c2)n(COCC#Cc2ccc(NC(=O)CBr)cc2)c(=O)[nH]c1=O,IIIB,MTT,Y181C,MT-4,EC50,1.3 µM
Cc1ccc(Cn2cc(Cc3ccc(F)cc3)cc(/C(O)=C/C(=O)C(=O)O)c2=O)cc1,,,,MAGI,EC50,1.6 µM
CN(C)S(=O)(=O)N1CCC2(CC1)COCCn1c2nc(C(=O)NCc2ccc(F)cc2)c(O)c1=O,NL4-3,luciferase / reporter gene,,MT-2,EC50,0.01–0.1 µM
COc1ccc(OP(=O)(N[C@@H](C)C(=O)OCc2ccccc2)OC[C@@H]2CCC(n3ccc(=O)[nH]c3=O)O2)c2ccccc12,,syncytia,,CEM,EC50,20 µM
COc1ccc(-c2c(C)nc3c(N4CC[C@@H](NC(=O)Oc5cccc(C)c5)C4)cc(C)nn23)cc1OC,,p24,,H9,EC50,0.2 µM
CC(=O)N1CCC2(CC1)COCCn1c2nc(C(=O)NCc2ccc(F)cc2-n2ncnc2C)c(O)c1=O,NL4-3,luciferase / reporter gene,,MT-2,EC50,≥0.1 µM
NS(=O)(=O)c1ccc(NC(=O)CSc2nnnn2-c2cc(Cl)ccc2Cl)c(Cl)c1,,p24,,MT-4,EC50,<10 µM
CCc1c(Cc2cc(C)cc(C)c2)n(COCC#Cc2cccc(CO[Si](c3ccccc3)(c3ccccc3)C(C)(C)C)c2)c(=O)[nH]c1=O,IIIB,MTT,EFV-resistant (K103R V179D P225H),MT-4,EC50,>100 µM
C=C(C)[C@@H]1CC[C@]2(CO)CC[C@]3(C)[C@H](CC[C@@H]4[C@@]5(C)CC=C(c6ccc(B(O)O)cc6)C(C)(C)[C@@H]5CC[C@]43C)[C@@H]12,NL4-3,luciferase,Gag P373S,MT-2,EC50,0.0134 µM
O=C(CSc1nnnn1-c1cccc2cnccc12)Nc1ccccc1Cl,,p24,,MT-4,EC95,<10 µM
C[C@H](NP(=O)(OC[C@@H]1CCC(n2ccc(=O)[nH]c2=O)O1)Oc1ccccc1)C(=O)OCc1ccccc1,,syncytia,,CEM,EC50,40.8 µM
CCn1cc(C(=O)O)c(=O)c2cc(F)c(N3CCN(c4ccccc4OC)CC3)c(OC(F)F)c21,IIIB,p24,,PBMC,EC50,0.085 µM
O=C(O)C(=O)/C=C(\O)c1cc(Cc2ccccc2F)cn(Cc2ccccc2F)c1=O,,,,MAGI,EC50,0.7 µM
Cc1ncnn1-c1cc(F)ccc1CNC(=O)c1nc2n(c(=O)c1O)CCOC21CCN(C(=O)C(=O)N(C)C)CC1,NL4-3,luciferase / reporter gene,,MT-2,EC50,≥0.1 µM
Nc1ccn([C@H]2CC[C@@H](CO)O2)c(=O)n1,,MTT,K103N,MT-4,EC50,0.33 µM
CC1CC(C)CN(S(=O)(=O)c2ccccc2[N+](=O)[O-])C1,7295-1,GFP / fluorescence,,HeLa,EC50,1 µM
CS(=O)c1ccc(-c2nc(-c3ccc(F)cc3)c(-c3ccncc3)[nH]2)cc1,89.6,p24,,PBMC,EC50,>1 µM
Cl.O=C(O)CCC1=C(CC(=O)O)c2cc3nc(cc4[nH]c(cc5[nH]c(cc1n2)c(CC(=O)O)c5CCC(=O)O)c(CC(=O)O)c4CCC(=O)O)C(CC(=O)O)=C3CC(=O)O,LAV,cytopathic effect,,MT-4,EC50,<10 µg/mL
COC(=O)[C@H](C)NP(=O)(OC[C@@H]1C=CC(n2ccc(=O)[nH]c2=O)O1)Oc1cccc2ccccc12,,syncytia,,CEM,EC50,>10 µM
C=C(C)[C@@H]1CC[C@]2(C(=O)O)CC[C@]3(C)[C@H](CC[C@@H]4[C@@]5(C)CC=C(c6ccc(/C=C/C(=O)O)cc6)C(C)(C)[C@@H]5CC[C@]43C)[C@@H]12,NL4-3,luciferase,Gag P373S,MT-2,EC50,1 µM
C=C(C)[C@@H]1CC[C@]2(C(=O)NCCC(C)(C)C)CC[C@]3(C)[C@H](CC[C@@H]4[C@@]5(C)CC[C@H](OC(=O)CC(C)(C)C(=O)O)C(C)(C)[C@@H]5CC[C@]43C)[C@@H]12,NL4-3,absorbance,T371delta,,EC50,0.117 µM
Cc1ncn(Nc2cccc(Cl)c2)c1-c1cccc(C#N)c1,NL4-3,cytopathic effect / MTT,,MT-4,EC50,8.91 µM
O=C(O)C(=O)/C=C(\O)c1cc(Cc2ccccc2F)cn(Cc2ccc(F)cc2F)c1=O,,,,MAGI,EC50,0.6 µM
Cc1ncn(Nc2cccc(Cl)c2)c1-c1cccc(Cl)c1,SO561945 (RT K103N Y181C),cytopathic effect / MTT,RT-K103N Y181C,MT-4,EC50,0.38 µM
CCN1c2ncc(CCOc3ccc(CC(=O)O)c4c3CCCC4)cc2C(=O)N(C)c2ccc(F)nc21,,p24,RT-K103N Y181C,C8166,EC50,<0.1 µM
Cc1ccc(Nn2c(-c3ccccc3)c(C)[nH]c2=S)cc1Cl,IIIB,cytopathic effect / MTT,,MT-4,EC50,>44.29 µM
Cc1ccc(-c2ccc3c(c2)C=C(C(=O)Nc2ccc(C[N+](C)(C)C4CCOCC4)cc2)CCC3)cc1,CM1 CLADE C,p24,,PBMC,EC50,<1 µM
COc1ccc(-c2c(C)nc3c(N4CC[C@@H](OC(C)=O)C4)cc(C)nn23)cc1OC,,p24,,H9,EC50,0.4 µM
COC(=O)c1cc(NC(=O)Nc2cccc3c(C(=O)C(=O)N4CCN(C(=O)c5ccccc5)C[C@H]4C)c[nH]c23)cc(C(=O)OC)c1,,luciferase / reporter gene,,HeLa,EC50,<1 µM
CCc1c(Cc2cc(C)cc(C)c2)n(COC/C(Br)=C(\Br)c2ccccc2)c(=O)[nH]c1=O,IIIB,MTT,K103N + Y181C,MT-4,EC50,11 µM
CC(C)=CCC[C@]1(C)C=Cc2c(ccc3c2C(=O)C(=O)C(CC2=CC(=O)c4ccccc4C2=O)=C3O)O1,RF,cytopathic effect / XTT,,MT-4,EC50,>50 µM
CCc1c(Cc2cc(C)cc(C)c2)n(COCC#Cc2ccccc2C(F)(F)F)c(=O)[nH]c1=O,IIIB,MTT,WT,MT-4,EC50,0.06 µM
COc1cnc(-n2cnc(C)n2)c2c1c(C(=O)C(=O)N1CCN(C(=O)c3ccccc3)CC1)cn2COP(=O)(O)O,NL4-3,luciferase,M426L,U-87,EC50,0.0442 µM
Nc1ccc(NC(=O)c2ccccc2SSc2ccccc2C(=O)Nc2ccc(N)cc2)cc1,,cytopathic effect / XTT,,CEM,EC50,7 µM
CCN1c2ncc(CCOc3ccc(CC(=O)NN)c4ccccc34)cc2C(=O)N(C)c2cccnc21,,p24,RT-K103N Y181C,C8166,EC50,<0.1 µM
CCCCCCCCCCCCNC(=O)c1ccccc1SSc1ccccc1C(=O)NCCCCCCCCCCCC,,cytopathic effect / XTT,,CEM,EC50,16 µM
C=Cc1c(C)c2cc3[nH+]c(c4c5[n-]c(cc6[nH+]c(cc1[n-]2)C(C)=C6CC)c(C)c5C(=O)C4C(=O)OC)[C@@H](CCC(=O)O/C=C(\C)CCCC(C)CCCC(C)CCCC(C)C)[C@@H]3C.[Mg+2],LAV,cytopathic effect,,MT-4,EC50,<10 µg/mL
C[C@@H]1CN(C(=O)c2ccccc2)CCN1C(=O)C(=O)c1c[nH]c2c(NC(=O)/C=C/C(=O)O)cccc12,,luciferase / reporter gene,,HeLa,EC50,<1 µM
COc1ccc(-c2c(C)nc3c(N4CCN(C(C)=O)CC4)cc(C)nn23)cc1OC,,p24,,H9,EC50,>1 µM
CCC1=C(C)C2=NC1=CC1=C(C)C3=C(O)CC(=C4N=C(C=c5[nH]c(c(CC)c5C)=C2)C(C)=C4CCC(=O)O)C3=N1,LAV,cytopathic effect,,MT-4,EC50,<10 µg/mL
CCc1c(Cc2cc(C)cc(C)c2)n(COCC#CC#CCO)c(=O)[nH]c1=O,IIIB,MTT,WT,MT-4,EC50,0.008 µM

A second listing of 4 rows from above:

compound,strain or isolate,read by,mutations,cell line,read-out,result
CC(C)C[C@@H](CO)NC(=O)c1ccccc1SSc1ccccc1C(=O)N[C@H](CO)CC(C)C,,cytopathic effect / XTT,,CEM,EC50,>12 µM
CNC(=O)c1nc2n(c(=O)c1O)CCOC21CCN(S(=O)(=O)c2cc(F)ccc2C)CC1,NL4-3,luciferase / reporter gene,,MT-2,EC50,≥0.1 µM
Cc1ncnn1-c1cc(F)ccc1CNC(=O)c1nc2n(c(=O)c1O)CCOC21CCN(C(=O)C(=O)N(C)C)CC1,NL4-3,luciferase / reporter gene,,MT-2,EC50,≥0.1 µM
COC(=O)[C@H](C)NP(=O)(OC[C@@H]1C=CC(n2ccc(=O)[nH]c2=O)O1)Oc1cccc2ccccc12,,syncytia,,CEM,EC50,>10 µM

Blank or dashed fields: not listed here. Neighbouring rows are from separate reports. ECn is the concentration giving n% inhibition of infection, replication or growth.